Reference: PMC5595889, “Synergy of two low-affinity NLSs determines the high avidity of influenza A virus nucleoprotein NP for human importin α isoforms” (2017)

Key:
Experiment in all cases: pull-down
[1] = biological target: GST-tagged importin α1 lacking the IBB; conditions: GST-importin α isoforms (1 μM), influenza NP (0.75 µM), 4 °C; parent: est. 0.50; read off a plot
[2] = biological target: GST-tagged importin α3 lacking the IBB; conditions: GST-importin α isoforms (1 μM), influenza NP (0.75 µM), 4 °C; parent: est. 0.73; read off a plot
[3] = biological target: GST-tagged importin α5 lacking the IBB; conditions: GST-importin α isoforms (1 μM), influenza NP (0.75 µM), 4 °C; parent: est. 0.86; read off a plot
[4] = biological target: GST-tagged importin α7 lacking the IBB; conditions: GST-importin α isoforms (1 μM), influenza NP (0.75 µM), 4 °C; parent: est. 0.95; read off a plot

| Substance | response [1] [pixel ratio] | response [2] [pixel ratio] | response [3] [pixel ratio] | response [4] [pixel ratio] |
| --- | --- | --- | --- | --- |
| influenza A virus (H1N1 strain A/WSN/33) monomeric nucleoprotein (from UniProt P15682) K7A; R8A; R213A; R214A | 0.02 | 0.01 | 0.005 | 0.012 |
| influenza A virus (H1N1 strain A/WSN/33) monomeric nucleoprotein (from UniProt P15682) R213A; R214A |  | 0.59 | 0.69 |  |
| influenza A virus (H1N1 strain A/WSN/33) monomeric nucleoprotein (from UniProt P15682) K7A; R8A | 0.033 | 0.01 | 0.01 | 0.012 |
